Measured values from several laboratories, pooled; numbers as filed in NIAID ChemDB.

Shared fields: tests in culture; agent: Candida albicans; read-out: MIC

Two numbers with a dash give a range or band. Neighbouring rows are from separate reports. Blank or dashed fields: not listed here.

structure,strain or isolate,result
COCCOCCOCCOCCOCCOCCNC(=O)[C@H]1[C@@H]2C[C@@H](O[C@@H]3O[C@H](C)[C@@H](O)[C@H](N)[C@@H]3O)/C=C/C=C/C=C/C=C/C=C/C=C/C=C/[C@H](C)[C@@H](O)[C@H](C)[C@H](C)OC(=O)C[C@H](O)C[C@H](O)[C@@H](O)CC[C@H](O)C[C@H](O)C[C@](O)(C[C@@H]1O)O2,3 strains,3.2–6.4 µg/mL
CN(Cc1cccc2ccccc12)/N=C\c1ccc2ccccc2c1,,>64 µg/mL
Cc1cc2c(c(O)c1C(=O)NCC(=O)O)-c1c(cc3c(c1O)C(=O)c1cc(OCC(=O)O)cc(O)c1C3=O)[C@H](O)[C@H]2O[C@@H]1O[C@H](C)[C@H](O)[C@H](O[C@@H]2OC[C@@H](O)[C@H](O)[C@H]2O)[C@H]1O,A9540,50 µg/mL
Cn1c(=O)c(-c2[nH][nH]c(=O)c2N=Nc2ccccc2)c(O)c2ccccc21,ATCC 10231,>100 µg/mL
C[C@H](N)C(=O)N[C@@H](C(=O)O)n1cc(F)c(=O)[nH]c1=O,BC759,>100 µg/mL
COc1cc(O)c2c(c1)C(=O)c1c(cc3c(c1O)-c1c(cc(C)c(C(=O)N[C@H](CO)C(=O)O)c1O)[C@H](OC1OC(C)C(N)C(OC4OCC(O)C(O)C4O)C1O)[C@H]3O)C2=O,IAM4888,6.3 µg/mL
COc1cc(OC)cc(C(=O)Nc2ccc(C)cc2O)c1,,25 µM
CNC(=S)N/N=C(\C)c1ccc(Nc2nc(C)nc3sc4c(c23)CCCC4)cc1,,210 µg/mL
CN1O[C@H](CSc2ccc(F)cc2)C[C@]1(c1ccc(Cl)cc1)n1ccnc1,ATCC10259,7 µg/mL
COc1ccccc1/C=c1\c(=O)[nH][nH]\c1=C1/C(=O)c2ccccc2N(C)C1=O,ATCC 10231,>100 µg/mL
COc1cc(OC)cc(C(=O)Nc2ccc([N+](=O)[O-])cc2O)c1,,50 µM
CCS[C@H](C)[C@](O)(Cn1cncn1)c1ccc(F)cc1F,KB-8,0.1 µg/mL
Cn1c(=O)c(-c2[nH][nH]c(=O)c2C=Nc2cccnc2)c(O)c2ccccc21,ATCC 10231,25 µg/mL
C[C@@H](n1cnc2cc(S(C)(=O)=O)ccc2c1=O)[C@](O)(Cn1cncn1)c1ccc(F)cc1F,60 strains,1.25 µg/mL
O=C1C[C@@H](c2ccc(O)cc2)Oc2cc(O)cc(O)c21,,>250 µg/mL
N#CC1=C(N)OC2=C(SC3=NC4=C(C(=O)CCC4)C(c4ccc(F)cc4)N32)C1c1ccc(Cl)cc1,AUCC-1720,100 µg/mL
O=c1[nH]cc(F)c(=O)[nH]1,BC759,1 µg/mL
C/C(=N\N)c1ccc(Nc2nc(C)nc3sc4c(c23)CCCC4)cc1,,155 µg/mL
Cc1ccc(NC(=O)c2cc(C)ccc2C)c(O)c1,,50 µM
CN[C@@H]1[C@H](O[C@@H]2OC[C@@H](O)[C@H](O)[C@H]2O)[C@@H](O)[C@H](O[C@H]2c3c(N)c(C)c(C(=O)N[C@H](C)C(=O)O)c(O)c3-c3c(cc4c(c3O)C(=O)c3cc(OC)cc(O)c3C4=O)[C@@H]2O)O[C@@H]1C,A9540,>100 µg/mL
O=S(=O)(c1ccccc1)n1cc(C(F)(F)C(O)(Cn2cncn2)c2ccc(F)cc2F)c2ccccc21,ATCC 90028,>64 µg/mL
CN[C@@H]1[C@H](O[C@@H]2OC[C@@H](O)[C@H](O)[C@H]2O)[C@@H](O)[C@H](O[C@H]2c3cc(C)c(C(=O)N[C@H](C)C(=O)O)c(O)c3-c3c(cc4c(c3O)C(=O)c3cc(OC)c(I)c(O)c3C4=O)[C@@H]2O)O[C@@H]1C,A9540,>100 µg/mL
CN(Cc1cccc2ccccc12)/N=C\c1ccccc1Cl,,>64 µg/mL
O=C(CN1C(=O)S/C(=C\c2ccc(-c3cc(=O)c4ccccc4o3)cc2)C1=O)c1ccc([N+](=O)[O-])cc1,,12.5 µg/mL
C[C@H](n1cnc2cc(Cl)ccc2c1=O)[C@@](O)(Cn1cncn1)c1ccc(F)cc1F,60 strains,10 µg/mL
CN1O[C@H](CSc2ccc(Cl)cc2)C[C@]1(c1ccc(F)cc1)n1ccnc1,ATCC10259,2 µg/mL
OC(Cn1cncn1)(c1ccc(F)cc1F)C(F)(F)c1ccccn1,ATCC 90028,≤0.125 µg/mL
Cc1ccc(/C=c2\c(=O)[nH][nH]\c2=C2/C(=O)c3ccccc3N(C)C2=O)cc1,ATCC 10231,>100 µg/mL
O=C(O)c1cccc(C(=O)O)n1,ATCC 10231,>450 µg/mL
CN1O[C@H](CSc2ccc(Cl)cc2)C[C@]1(c1ccc(Cl)cc1)n1ccnc1,ATCC10259,7 µg/mL
Cc1ccc(NC(=O)Cc2ccc([N+](=O)[O-])cc2)c(O)c1,,25 µM
OC(Cn1cncn1)(c1ccc(C(F)(F)F)cc1)C(F)(F)c1nc2ccccc2s1,ATCC 90028,≤0.016 µg/mL
C[C@H]1N(C(=O)c2ccc(C(F)(F)F)cc2)C[C@@H](O)O[C@@]1(Cn1cncn1)c1ccc(F)cc1F,Isolate 5,>64 µg/mL
C[C@@H](SCCCCCCCC(N)=O)[C@](O)(Cn1cncn1)c1ccc(F)cc1F,KB-8,0.2 µg/mL
CC1(c2ccccc2)CC(/C(=N/OCc2ccccc2)c2cc3ccccc3o2)C1,ATCC 10231,2.5 µg/mL
COc1ccc(C(=O)Nc2ccc(C)cc2O)cc1,,50 µM
COc1ccc(C(=O)CN2C(=O)S/C(=C\c3ccc(-c4cc(=O)c5ccccc5o4)cc3)C2=O)cc1,,25 µg/mL
C[C@@H](SCCCCCCCC#N)[C@](O)(Cn1cncn1)c1ccc(F)cc1F,KB-8,≤0.013 µg/mL
Cc1cc(C)c2ncn([C@H](C)[C@](O)(Cn3cncn3)c3ccc(F)cc3F)c(=O)c2c1,76 strains,10 µg/mL
N#Cc1c(N)nc2c(c1-c1ccc(F)cc1)SC1=NC3=C(C(=O)CCC3)C(c3ccc(F)cc3)N12,AUCC-1720,100 µg/mL
Cc1ccc(NC(=O)Cc2ccc(Br)cc2)c(O)c1,,12.5 µM
CCCCC/C=C/C=N\N(C)Cc1cccc2ccccc12,,>64 µg/mL
CCC(C)CC(C)CCCCCCCCC(=O)N[C@H]1C[C@@H](O)[C@H](NCCN)NC(=O)[C@@H]2[C@@H](O)CCN2C(=O)[C@H]([C@H](O)CCN)NC(=O)[C@H]([C@H](O)[C@@H](O)c2ccc(O)cc2)NC(=O)[C@@H]2C[C@@H](O)CN2C(=O)[C@H]([C@@H](C)O)NC1=O,40 isolates,8–32 µg/mL
C=CC(C)(/C=C\c1ccc(O)cc1)c1ccc(O)cc1,IFO 1594,50 µg/mL
COc1cc2c(c(O)c1C[N+](C)(C)C)C(=O)c1cc3c(c(O)c1C2=O)-c1c(O)c(C(=O)N[C@H](C)C(=O)O)c(C)c(N)c1[C@H](O[C@@H]1O[C@H](C)[C@H](N(C)C)[C@H](O[C@@H]2OC[C@@H](O)[C@H](O)[C@H]2O)[C@H]1O)[C@H]3O,A9540,>100 µg/mL
Cc1nc(Nc2ccc(C3=NC(=O)NC(c4ccc(Br)cc4)C3)cc2)c2c3c(sc2n1)CCCC3,,170 µg/mL
OC(Cn1cncn1)(c1ccc(F)cc1F)C(F)(F)c1nc(Br)cs1,ATCC 90028,≤0.125 µg/mL
O=C(N/N=C/c1cc([N+](=O)[O-])ccc1O)c1ccc(I)cc1,ATCC 89122,>25 µg/mL
C[C@@H](n1ncn(-c2ccc(OCC(F)(F)C(F)F)cc2)c1=O)[C@](O)(Cn1cncn1)c1ccc(F)cc1F,406 strains,≤0.03 µg/mL
COc1cccc(C(=O)Nc2ccc(C)cc2O)c1OC,,2 µM
COc1cccc([C@]2(n3ccnc3)C[C@@H](CSc3ccc(Cl)cc3)ON2C)c1,ATCC10259,20 µg/mL
Cc1nn(S(=O)(=O)c2ccccc2)c(C)c1C(F)(F)C(O)(Cn1cncn1)c1ccc(F)cc1F,ATCC 90028,2 µg/mL